Results of unrelated studies side by side (data: NIAID ChemDB).

Shared fields: whole-cell or culture tests; species: Candida albicans

MIC50, MIC90 and the like: level of inhibition, or share of isolates inhibited. Blank or dashed fields: not listed here. Lines come from different laboratories, so protocols vary.

structure,setting,read-out,strain,method,result
NC(=NC1CCCC1)c1ccc(-c2ccc(-c3ccc(C(N)=NC4CCCC4)cc3)o2)cc1,,MFC,Isolate 3028 fluconazole-resistant,,50 µg/mL
Cc1ccc(C(Cn2ccnc2)OCc2cccc3ccccc23)cc1,,MIC,CA7,,>128 µg/mL
CCCCCOc1ccc(-c2ccc(-c3ccc(C(=O)N[C@H]4CCCNC(=O)[C@@H]5C[C@H](CN)CN5C(=O)[C@H]([C@@H](C)O)NC(=O)[C@H](CCc5ccc(O)cc5)NC(=O)[C@@H]5C[C@@H](O)CN5C(=O)[C@H]([C@@H](C)O)NC4=O)cc3)cc2)cc1,,MIC,ATCC 38247,,0.39 µg/mL
CCCCCCCCOc1ccc(N2CCN(c3ccc(C(=O)N[C@H]4CCCNC(=O)C5C[C@H](N)CN5C(=O)C(C(C)O)NC(=O)[C@@H](OCc5ccccc5)NC(=O)C5C[C@@H](O)CN5C(=O)C(C(C)O)NC4=O)cc3)CC2)cc1,,MIC,ATCC 10231,,>100 µg/mL
CCCCCCOc1ccc(CON2C(N)=NC(N)=NC2(C)C)cc1,,MIC,,,30 µg/mL
CCCCCCCCOc1ccc(N2CCN(c3ccc(C(=O)N[C@H]4CCCNC(=O)[C@@H]5C[C@H](N=C(N)N)CN5C(=O)[C@H](CCN)NC(=O)[C@H](CCc5ccc(O)cc5)NC(=O)[C@@H]5CCCN5C(=O)[C@H]([C@@H](C)O)NC4=O)cc3)CC2)cc1,,MIC,ATCC 62376,,0.2 µg/mL
Oc1ccc2cc1Oc1ccc(cc1)CCc1ccc(c(O)c1)-c1c(O)cccc1CC2,,MIC80,CA2,broth dilution,32 µg/mL
Cc1ccc(C(Cn2ccnc2)OCc2ccc(-c3ccccc3)cc2)cc1,,MIC,Y0109,,64 µg/mL
OC(CN1CCN(c2ccc(OCc3ccncc3)cc2)CC1)(Cn1cncn1)c1ccc(F)cc1F,,MIC80,FH1,,≤0.063 µg/mL
CC(C)(C)c1ccc(COC(Cn2ccnc2)c2ccc(Cl)cc2)cc1,,MIC,CA12,,>128 µg/mL
CC(C)C(=N)CCC=C1CO[C@@](Cn2cncn2)(c2ccc(F)cc2F)C1,,MIC,CI-2,,100 µg/mL
CCCCCCCCNC1CCCNC(=O)[C@@H]2C[C@H](N)CN2C(=O)[C@H]([C@@H](C)O)NC(=O)[C@H](CCc2ccc(O)cc2)NC(=O)[C@@H]2C[C@@H](O)CN2C(=O)[C@H]([C@@H](C)O)NC1=O,,MIC,ATCC 62376,,0.2 µg/mL
Clc1ccc(CO/N=C2\c3ccccc3OCC2n2cncn2)cc1,,MIC,ATCC 10231,,8 µg/mL
COc1ccc(N2CCN(c3ccc(C(=O)N[C@H]4CCCNC(=O)C5C[C@H](N)CN5C(=O)C(C(C)O)NC(=O)C(CCc5ccc(O)cc5)NC(=O)C5C[C@@H](O)CN5C(=O)C(C(C)O)NC4=O)cc3)CC2)cc1,,MIC,ATCC 62376,,1.56 µg/mL
CN[C@@H]1[C@H](O[C@@H]2O[C@H](CO)[C@@H](O)[C@H](S(=O)(=O)O)[C@H]2O)[C@@H](O)[C@H](O[C@H]2c3cc(C)c(C(=O)N[C@H](C)C(=O)O)c(O)c3-c3c(cc4c(c3O)C(=O)c3cc(OC)cc(O)c3C4=O)[C@@H]2O)O[C@@H]1C,,MIC,A9540,,25 µg/mL
c1ccc(CO/N=C2/c3ccccc3OCC2n2cncn2)cc1,,MFC,ATCC 10231,,>64 µg/mL
CCC(C)n1ncn(-c2ccc(N3CCN(c4ccc(OC[C@H]5CO[C@](Cn6cncn6)(c6ccc(Cl)cc6Cl)O5)cc4)CC3)cc2)c1=O,,MIC90,Fluconazole-susceptible,,0.12 µg/mL
CCCCCOc1ccc(-c2ccc(-c3ccc(C(=O)N[C@H]4CCCNC(=O)[C@@H]5C[C@H](N)CN5C(=O)[C@H](CO)NC(=O)C(CCc5ccc(O)cc5)NC(=O)[C@@H]5C[C@@H](O)CN5C(=O)[C@H]([C@@H](C)O)NC4=O)cc3)cc2)cc1,,MIC,ATCC CCH442,,0.1 µg/mL
CCCCCOc1ccc(-c2ccc(-c3ccc(C(=O)N[C@H]4CCCNC(=O)[C@@H]5C[C@H](NC(C)=O)CN5C(=O)[C@H]([C@@H](C)O)NC(=O)[C@H](CCc5ccc(O)cc5)NC(=O)[C@@H]5C[C@@H](O)CN5C(=O)[C@H]([C@@H](C)O)NC4=O)cc3)cc2)cc1,,MIC,ATCC 62376,,0.2 µg/mL
Nc1ncccc1-c1cc(Cc2ccc(COc3ccccn3)cc2)no1,30% human serum,MIC50,IFM49971,broth dilution,0.06 µg/mL
CCCCCOc1ccc(-c2ccc(-c3ccc(C(=O)N[C@H]4CCCNC(=O)[C@@H]5C[C@H](N)CN5C(=O)[C@H](CCCN=C(N)N)NC(=O)C(CCc5ccc(O)cc5)NC(=O)[C@@H]5C[C@@H](O)CN5C(=O)[C@H]([C@@H](C)O)NC4=O)cc3)cc2)cc1,,MIC,ATCC 38247,,0.78 µg/mL
Clc1ccc(CO/N=C2/c3ccc(Cl)cc3OCC2n2cnnc2)c(Cl)c1,,MFC,ATCC 10231,,>64 µg/mL
CC(C)C(=O)CCC[C@@H]1CO[C@@](Cn2ccnc2)(c2ccc(F)cc2F)C1,,MIC,IFO. 1385,,<0.1 µg/mL
Cc1nn(-c2ccccc2)c2c1C(c1cccc(Cl)c1)c1c(nc(=S)[nH]c1N)O2,,MIC,MTCC 227,,1000 µg/mL
CCCCCC(CCCCC)c1ccc(N2CCN(c3ccc(C(=O)N[C@H]4CCCNC(=O)C5C[C@H](N)CN5C(=O)C(C(C)O)NC(=O)C(CCc5ccc(O)cc5)NC(=O)C5C[C@@H](O)CN5C(=O)C(C(C)O)NC4=O)cc3)CC2)cc1,,MIC,ATCC 62376,,0.78 µg/mL
Cc1nn(-c2ccccc2)c2c1C(c1ccc(F)cc1)c1c(nc(=S)[nH]c1N)O2,,MIC,MTCC 227,,150 µg/mL
CCCCCOc1ccc(-c2ccc(-c3ccc(C(=O)N[C@H]4CCCNC(=O)[C@@H]5C[C@H](N)CN5C(=O)[C@H](Cc5ccc(O)cc5)NC(=O)C(CCc5ccc(O)cc5)NC(=O)[C@@H]5C[C@@H](O)CN5C(=O)[C@H]([C@@H](C)O)NC4=O)cc3)cc2)cc1,,MIC,ATCC 38247,,1.56 µg/mL
CC(/C=C/C=C(\C)C(O)C(C)C(=O)O[C@H]1C[C@@H](C)C=C2C=C[C@]3(C)O[C@@H](O)CC(=O)[C@]3(C)[C@H]21)=C\C=C\C(=O)O,,MIC,AC3409,,0.78 µg/mL
COc1ccc(CON2C(N)=NC(N)=NC2(C)C)cc1OC,,MIC,,,>240 µg/mL
CCCCCOc1ccc(-c2cc(-c3ccc(C(=O)N[C@H]4C[C@@H](O)[C@@H](O)NC(=O)[C@@H]5[C@@H](O)[C@@H](C)CN5C(=O)[C@H]([C@H](O)CC(N)=O)NC(=O)[C@H]([C@H](O)[C@@H](O)c5ccc(O)c(OS(=O)(=O)O)c5)NC(=O)[C@@H]5C[C@@H](O)CN5C(=O)[C@H]([C@@H](C)O)NC4=O)cc3)no2)cc1,,MIC50,,broth dilution,0.016 µg/mL
CC[C@@H]([C@H](C)O)n1ncn(-c2ccc(N3CCN(c4ccc(OC[C@@H]5CO[C@@](Cn6cncn6)(c6ccc(F)cc6F)C5)cc4)CC3)cc2)c1=O,,MIC50,10 strains (fluconazole- itraconazole-susceptible),,<0.03 µg/mL
Clc1ccc(C(Cn2ccnc2)OCc2cccc3ccccc23)cc1,,MIC,CDCB385,,128 µg/mL
Cc1nn(-c2ccccc2)c2c1C(c1ccc(F)cc1)c1c(nc(=O)[nH]c1N)O2,,MIC,MTCC 227,,150 µg/mL
CC(C)C(=N)CCC[C@H]1CO[C@@](Cn2cccc2)(c2ccc(F)cc2F)C1,,MIC,CI-2,,100 µg/mL
c1ccc(CO/N=C2\c3ccccc3OCC2n2cncn2)cc1,,MIC,ATCC 10231,,16 µg/mL
CCCCCOc1ccc(-c2ccc(-c3ccc(C(=O)N[C@H]4CCCNC(=O)C5C[C@H](NC(=O)NCCC(C)C)CN5C(=O)C(C(C)O)NC(=O)C(CCc5ccc(O)cc5)NC(=O)C5C[C@@H](O)CN5C(=O)C(C(C)O)NC4=O)cc3)cc2)cc1,,MIC,ATCC 10231,,12.5 µg/mL
CC(C)C(=N)CCC[C@H]1CO[C@@](Cn2ccnc2)(c2ccc(F)cc2F)C1,,MIC,CI-2,,>100 µg/mL
Clc1ccc(COC(Cn2ccnc2)c2ccc(Cl)cc2Cl)c(Cl)c1,,MIC,IFO 1594,,0.063 µg/mL
c1ccc(-c2ccc(COC(Cn3ccnc3)c3ccccc3)cc2)cc1,,MIC,3M,,128 µg/mL
CC(C)C(=O)CCC[C@@H]1CO[C@@](Cn2cncn2)(c2ccc(F)cc2F)C1,,MIC,IFO. 1385,,<0.1 µg/mL
Clc1ccc(C(Cn2ccnc2)OC/C=C/c2ccccc2)cc1,,MIC,CDCB385,,128 µg/mL
CCCCCCCCOc1ccc(-c2ccc(C(=O)NC3CC(NCCN)CNC(=O)[C@@H]4[C@@H](O)[C@@H](C)CN4C(=O)[C@@H](CO)NC(=O)[C@H]([C@H](O)Cc4ccccc4)NC(=O)[C@@H]4C[C@@H](O)CN4C(=O)[C@H]([C@@H](C)O)NC3=O)cc2)cc1,,MIC,98-234,,0.5 µg/mL
Clc1ccc(C(Cn2ccnc2)OCc2cccc3ccccc23)c(Cl)c1,,MIC,CA12,,2 µg/mL
CCCCCCCCCCCON1C(N)=NC(N)=NC1(C)C,,MIC,,,15 µg/mL
Cc1nn(-c2ccccc2)c2c1C(c1cccc([N+](=O)[O-])c1)C(C#N)=C(N)O2,,MIC,MTCC 227,,500 µg/mL
CCCCOc1ccccc1CON1C(N)=NC(N)=NC1(C)C,,MIC,,,30 µg/mL
CC(C)(C)c1ccc(COC(Cn2ccnc2)c2ccc(Cl)cc2Cl)cc1,,MIC,CDCB385,,>128 µg/mL

A second listing of 3 rows from above:

structure,setting,read-out,strain,method,result
CC(C)(C)c1ccc(COC(Cn2ccnc2)c2ccc(Cl)cc2)cc1,,MIC,CA12,,>128 µg/mL
c1ccc(CO/N=C2/c3ccccc3OCC2n2cncn2)cc1,,MFC,ATCC 10231,,>64 µg/mL
COc1ccc(N2CCN(c3ccc(C(=O)N[C@H]4CCCNC(=O)C5C[C@H](N)CN5C(=O)C(C(C)O)NC(=O)C(CCc5ccc(O)cc5)NC(=O)C5C[C@@H](O)CN5C(=O)C(C(C)O)NC4=O)cc3)CC2)cc1,,MIC,ATCC 62376,,1.56 µg/mL